# Experimental data published in patent US20160166676A1 (priority 2013, published 2016).
# Test system: CTLL-2 cells
# Experiment: CTLL-2 proliferation assay (immunosuppression by monomeric and dimeric peptides)
# Type: cell-based
# Details: FIG. 2; Flavi virus derived peptides, two independent experiments
sequence,measurement,value
DRGWGNGCGLFGKG,proliferation of CTLL-2 cells,significant inhibition of proliferation of CTLL-2 cells
